Measured values published in publication PMC10897926 (Journal of Natural Products, 2024).

Tests used:
[1] = system: primary human hepatocytes; conditions: for PHH Tox pCC50: -log of CC50 in [M], mean ± SD; for CC50: read-out: PHH Tox CC50, host primary human hepatocytes of the P. vivax liver stage assay, two independent experiments
HepG2 cells = test: HepG2 cytotoxicity; conditions: for HepG2 Tox pCC50: -log of CC50 in [M], mean ± SD of independent experiments; for HepG2 Tox pCC50 / CC50: 72 h; for CC50: read-out: HepG2 Tox CC50, geometric mean of three independent experiments

Compound	PHH Tox pCC50 [1]	CC50 [1] [nM]	HepG2 Tox pCC50 (HepG2 cells)	CC50 (HepG2 cells) [nM]	cytotoxicity (in words) (HepG2 cells; HepG2)
CC1=C[C@H]2O[C@@H]3C[C@@H](O)[C@](C)([C@@]2(CO)CC1)[C@@]31CO1	5.00 ± 0.00	> 10000	5.00 ± 0.00	> 10000	–
verrucarin A	6.50 ± 0.05	316	8.45 ± 0.18	3.55	cytotoxic
